The structures appear in SMILES notation.

By UniProt entry, the sequences of proteins in these tests, tags left out. Chains listed by the source or under a name are the forms on record and can include a tag or linker. Residues count along the entry.
UniProt P26663, 1029-1207 with tags or gaps I1043K limits assumed: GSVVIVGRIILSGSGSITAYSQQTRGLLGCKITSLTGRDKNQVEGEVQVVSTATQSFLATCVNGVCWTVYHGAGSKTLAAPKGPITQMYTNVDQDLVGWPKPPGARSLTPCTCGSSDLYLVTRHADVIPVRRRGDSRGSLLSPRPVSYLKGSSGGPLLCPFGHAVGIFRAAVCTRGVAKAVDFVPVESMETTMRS
UniProt P27958, 1027-1657 limits assumed: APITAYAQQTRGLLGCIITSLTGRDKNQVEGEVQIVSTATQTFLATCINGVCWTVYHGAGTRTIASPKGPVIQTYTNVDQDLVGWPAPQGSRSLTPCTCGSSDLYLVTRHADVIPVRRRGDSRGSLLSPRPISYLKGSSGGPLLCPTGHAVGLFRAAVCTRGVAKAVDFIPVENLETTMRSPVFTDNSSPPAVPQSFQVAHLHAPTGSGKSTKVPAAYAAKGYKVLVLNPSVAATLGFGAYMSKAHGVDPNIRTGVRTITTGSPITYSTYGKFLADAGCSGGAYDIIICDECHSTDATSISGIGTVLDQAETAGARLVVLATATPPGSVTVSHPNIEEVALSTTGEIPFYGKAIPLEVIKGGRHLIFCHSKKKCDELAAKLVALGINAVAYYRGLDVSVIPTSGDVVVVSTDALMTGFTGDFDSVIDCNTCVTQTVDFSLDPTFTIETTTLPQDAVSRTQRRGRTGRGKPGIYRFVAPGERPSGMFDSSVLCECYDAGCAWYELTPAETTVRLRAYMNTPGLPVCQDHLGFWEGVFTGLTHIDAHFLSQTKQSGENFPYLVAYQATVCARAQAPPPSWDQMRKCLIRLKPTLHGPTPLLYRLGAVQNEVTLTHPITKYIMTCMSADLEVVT
UniProt P27958, 1658-1711 partner limits assumed: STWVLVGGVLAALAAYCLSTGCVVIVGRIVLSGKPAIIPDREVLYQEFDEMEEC

Assay [1] concerns the target HCV serine protease (subtype 1b, 1bNS4A21-32GS-GS NS3-81 I17K) in HeLa/Huh7 cells (Hepatitis C virus genotype 1b, UniProt P26663, I1043K). As to the kind of experiment: HCV serine protease cell-based trans-cleavage assay (BFP-5A/5B-GFP reporter cleavage, Western blot). How it is done: The cell bioassays for the HCV serine protease was performed on the inventive compounds by following the procedure described by S. Agrawal et al, “Development and Characterization of Hepatitis C Virus Serine Protease Cell-based Trans-Cleavage Assay”, Hepatology Supplement to Volume 30 (No. 4, Part 2, October 1999), Abstract No. 615 (Proceedings of AASLD 50th Annual Meeting, Dallas, Tex., Nov. 5-9, 1999), the disclosure of which is incorporated herein by reference. The assay was performed in HeLa/Huh7 cells that were co-transfected with a plasmid that expresses a reporter protein substrate containing the NS5A/5B cleavage recognition sequence and an 1BNS4A21-32 GS-GSNS3-81 I17K expression vector and YFPn1 as a internal standard protein to control cytotoxicity. Protease activity was measured by SDS-PAGE of total cell lysates followed by Western blot detection using a monoclonal antibody directed against the reporter substrate. Quantitation of substrate cleavage was performed by scanning the immunoblot on the phosphoimager.
The reporter gene that expresses the substrate encodes a fusion protein comprised of an N′ terminal blue fluorescent protein (BFP) domain and a C′ terminal green fluorescent protein (GFP) domain, separated by a 25 amino acids derived from the NS5A/5B cleavage recognition sequence. […]
(In western blotting, separated proteins are transferred to a membrane and probed.)

Assay [2] concerns the target Recombinant heterodimeric HCV NS3/NS4A protease (strain 1a) (Hepatitis C virus genotype 1a, UniProt P27958). As to the kind of experiment: HCV protease continuous (spectrophotometric) assay. Conditions: pH 6.5. How it is done:
Spectrophotometric assays for the HCV serine protease was performed on the inventive compounds by following the procedure described by R. Zhang et al, Analytical Biochemistry, 270 (1999) 268-275, the disclosure of which is incorporated herein by reference. The assay based on the proteolysis of chromogenic ester substrates is suitable for the continuous monitoring of HCV NS3 protease activity. The substrates were derived from the P side of the NS5A-NS5B junction sequence (Ac-DTEDVVX(Nva), where X=A or P) whose C-terminal carboxyl groups were esterified with one of four different chromophoric alcohols (3- or 4-nitrophenol, 7-hydroxy-4-methyl-coumarin, or 4-phenylazophenol). Presented below are the synthesis, characterization and application of these novel spectrophotometric ester substrates to high throughput screening and detailed kinetic evaluation of HCV NS3 protease inhibitors.
Recombinant heterodimeric HCV NS3/NS4A protease (strain 1a) was prepared by using the procedures published previously (D. L. Sali et al, Biochemistry, 37 (1998) 3392-3401). Protein concentrations were determined by the Biorad dye method using recombinant HCV protease standards previously quantified by amino acid analysis. Prior to assay initiation, the enzyme storage buffer (50 mM sodium phosphate pH 8.0, 300 mM NaCl, 10% glycerol, 0.05% lauryl maltoside and 10 mM DTT) was exchanged for the assay buffer (25 mM MOPS pH 6.5, 300 mM NaCl, 10% glycerol, 0.05% lauryl maltoside, 5 μM EDTA and 5 μM DTT) utilizing a Biorad Bio-Spin P-6 prepacked column.
HCV protease assays were performed at 30° C. using a 200 μl reaction mix in a 96-well microtiter plate. Assay buffer conditions (25 mM MOPS pH 6.5, 300 mM NaCl, 10% glycerol, 0.05% lauryl maltoside, 5 μM EDTA and 5 μM DTT) were optimized for the NS3/NS4A heterodimer (D. L. Sali et al, ibid.)). […] Fifty μls of prewarmed protease (12 nM, 30° C.) in assay buffer, was then used to initiate the reaction (final volume 200 μl).The plates were monitored over the length of the assay (60 minutes) for change in absorbance at the appropriate wavelength (340 nm for 3-Np and HMC, 370 nm for PAP, and 400 nm for 4-Np) using a Spectromax Plus microtiter plate reader equipped with a monochrometer (acceptable results can be obtained with plate readers that utilize cutoff filters). Proteolytic cleavage of the ester linkage between the Nva and the chromophore was monitored at the appropriate wavelength against a no enzyme blank as a control for non-enzymatic hydrolysis. […] Initial velocities were determined using linear regression and kinetic constants were obtained by fitting the data to the Michaelis-Menten equation using non-linear regression analysis (Mac Curve Fit 1.1, K. Raner). […]

As to `CCC[C@H](NC(=O)[C@@H]1C[C@@H]2CN1C(=O)[C@H](C1CCCCC1)NC(=O)Cc1cccc(c1)OCCO2)C(=O)C(=O)NCC(=O)N[C@H](C(=O)N(C)C)c1ccccc1`, in assay [1], the “Cell-Based Assay” value is 7 µM. Besides, the Ki (usually a measure of affinity in units of concentration, obtained from inhibition or displacement) in assay [2] was in the range of 1 to 100 nM. On to `CCCC[C@H](NC(=O)[C@@H]1C[C@@H]2CN1C(=O)[C@H](C(C)(C)C)NC(=O)Cc1ccccc1OCCCCO2)C(=O)C(=O)NCC(=O)N[C@H](C(=O)N(C)C)c1ccccc1`, for which, in assay [2], the Ki was in the range of 101 to 100000 nM. On the same count and under the same terms, to `CCC[C@@H](NC(=O)[C@@H]1C[C@@H]2CN1C(=O)[C@H](C1CCCCC1)NC(=O)Cc1cccc(c1)OCCCO2)C(=O)C(=O)NCC(=O)N[C@H](C(=O)N(C)C)c1ccccc1` belongs 101 to 100000 nM. Take `CCC[C@H](NC(=O)[C@@H]1C[C@@H]2CN1C(=O)[C@H](C1CCCCC1)NC(=O)Cc1cccc(c1)OCCCO2)C(=O)C(=O)NCC(=O)N[C@H](C(=O)N(C)C)c1ccccc1`: in assay [1], the “Cell-Based Assay” value was found to be 2 µM. Also, the Ki in assay [2] fell in the range of 1 to 100 nM.

Values taken from US6846802B2, “Macrocyclic NS3-serine protease inhibitors of hepatitis C virus comprising N-cyclic P2 moieties” (priority 2000, dated 2005).
